Pooled drug test results. Numbers come from NIAID ChemDB, via PubChem.

All rows: whole-cell or culture tests; organism: Influenza A virus; method: plaque count; read-out: EC50

Blank or dashed fields: not listed here.

compound | strain | cells | value
Nc1nc(Cl)c(N)c(NCC2(CO)CC(CCCc3ccccc3)C2)n1 | H1N1 A/PR/8/34 | MDCK | 0.016–0.027 µM
C/C=C\[C@@H]1C[C@H](C(=O)O)N[C@H]1[C@@H](NC(C)=O)[C@](C)(CCC)OC | Influenza A H3N2 isolate C25C | MDCK | ≤0.04 µg/mL
Nc1nc(Cl)cc(NC2(CO)CCC2)n1 | H1N1 A/PR/8/34 | MDCK | >440 µM
Cc1ccc(O)c(C(=O)N[C@@H]2CCC34CCC3N(Cc3ccccc3)C4C2)c1 | H1N1 A/WSN/33 (H1N1) | MDCK | >50 µg/mL
CC1=C(C)C2C(N)C1CC[C@H]2C(C)C | - | MDCK | >20 µM
Nc1ccn([C@@H]2O[C@H](CO)[C@@H](O)[C@H]2F)c(=O)n1 | A/Sweden | MDCK | 2.6 µM
Nc1nc(Cl)c(/C=N/O)c(NCC2(CO)CC(CCc3ccccc3)C2)n1 | H1N1 A/PR/8/34 | MDCK | 0.26–0.77 µM
CC[C@H]1C2CCCC(C2N)[C@H]1C | - | MDCK | 17.9 µM
N#CNc1nncs1 | A/X-15 | MDCK | 1.19 µg/mL
CCC(CC)O[C@@H]1C=C(C(=O)O)C[C@H](N)[C@H]1NC(C)=O | H1N1 A/FM/1/47 | MDCK | 0.024 µM
C[C@@H]1CC[C@@H]2CCCC[C@@H]2N1CCNC(=O)c1cc(Cl)ccc1O | H1N1 A/WSN/33 (H1N1) | MDCK | 0.09 µg/mL
Nc1nc(Cl)c(C=O)c(NCC2(CO)CC(CCc3ccccc3)C2)n1 | H1N1 A/PR/8/34 | MDCK | 6.7–8 µM
CCNC1C2CCCC1[C@@H](C)C2 | - | MDCK | 10 µM
Cc1ccc(O)c(C(=O)N[C@H]2CCC34CCC3N(C(C)C)C4C2)c1 | H1N1 A/WSN/33 (H1N1) | MDCK | >50 µg/mL
CC1=C(C)C2(C)CCCC1C2N | - | MDCK | >25 µM
Nc1nc2c(ncn2[C@@H]2O[C@H](CO)[C@@H](O)[C@H]2F)c(=O)[nH]1 | H3N2 A/HONG KONG/1/68 | CEF | 0.2 µM
CN1C2CCC23CC[C@H](NC(=O)c2cc(Cl)ccc2O)CC13 | H1N1 A/WSN/33 (H1N1) | MDCK | >50 µg/mL
CC1=C(C)C2(C)CC(C)(C)CC1C2N | - | MDCK | 30.4 µM
CC(C)N1C2CCC23CC[C@@H](NC(=O)c2cc(Cl)ccc2O)CC13 | H1N1 A/WSN/33 (H1N1) | MDCK | >50 µg/mL
CC1=C(C)C2C(N)C1[C@@H](C(C)C)C[C@@H]2C | - | MDCK | 51 µM
Cc1ccc(O)c(C(=O)NCCN2[C@H](C)CC[C@@H]3CCCC[C@H]32)c1 | H1N1 A/WSN/33 (H1N1) | MDCK | 1.5 µg/mL
CC1=C(C)C2(C)CCC(C)(C)C1C2N | - | MDCK | 53 µM

The last 2 rows once more:

Cc1ccc(O)c(C(=O)NCCN2[C@H](C)CC[C@@H]3CCCC[C@H]32)c1 ; strain: H1N1 A/WSN/33 (H1N1) ; cells: MDCK ; value: 1.5 µg/mL
CC1=C(C)C2(C)CCC(C)(C)C1C2N ; cells: MDCK ; value: 53 µM

a–b is a range or a potency band. ECn: concentration that inhibits the pathogen or its effect by n%. Conditions beyond the fields shown may differ between rows.